Assay results from patent US6670383B2, “Pyranocoumarin compounds as a novel pharmacophore with anti-TB activity” (priority 2001, dated 2003).

What follows are molecules tested on M. tuberculosis H37Ra (assay: MIC and MBC determination using 2-fold dilutions).
Format: cell-based

SMILES | MIC/MBC
CCCc1cc(=O)oc2c(C(=O)CC)c(OC)c3c(c12)OC(C)(C)CC3 [Compound 44b, 5-Methoxy-2,2-dimethyl-6-propionyl-10-propyl-3,4-dihydro-2H-pyrano[2,3-f]chromen-8-one] | >4
C=CC(C)Oc1cc2c(c3oc(=O)cc(CCC)c13)C(O)C(C)C(C)O2 (stereo not drawn) [cis-17f, 5-(1-Methylallyloxy)-10-hydroxy-8,9-dimethyl-4-propyl-9,10-dihydro-8H-pyrano[2,3-f]chromen-2-one] | >4
C=CCOc1cc(OCC=C)c2c(CCC)cc(=O)oc2c1C(O)CC (stereo not drawn) [Compound 21d, 5,7-Bis-allyloxy-8-(1-hydroxy-propyl)-4-propyl-chromen-2-one] | >4
